{"source": "patent US20030176652A1", "about": "“Human and mouse beta-defensins, antimicrobial peptides” (priority 2001, published 2003)", "origin": "cited, not measured here", "tested_on": "Legionella spp.", "parameters": "unit not given beside the values"}
{"smiles": "CC[C@H]1OC(=O)[C@H](C)[C@@H](O[C@H]2C[C@@](C)(OC)[C@@H](O)[C@H](C)O2)[C@H](C)[C@@H](O[C@@H]2O[C@H](C)C[C@H](N(C)C)[C@H]2O)[C@](C)(O)C[C@@H](C)C(=O)[C@H](C)[C@@H](O)[C@]1(C)O", "note": "[ERYTHROMYCIN, erythromycin]", "values": [{"measurement": "MIC90", "result": 0.25}]}
